Compound potency records, mixed from different reports. Data source: NIAID ChemDB in PubChem.

All rows: tests in culture; species: Mycobacterium avium; read-out: MIC

An empty or dashed field is not shown. Neighbouring rows are from separate reports.

CC(C)(C)c1cnc(C(=O)/C=C/c2ccccc2Br)cn1 ; strain: Chester ; read by: absorbance ; result: 100 µg/mL
Nc1ccccc1C(=O)Nc1ccc(Br)cc1 ; strain: MY330/88 ; result: >125 µM
CC(C)Cc1cnc(C(=O)/C=C/c2ccc(Cl)cc2)cn1 ; strain: Chester ; read by: absorbance ; result: >25 µg/mL
C/C=C1/CN2[C@H]3C[C@@H]1[C@@H](CO)[C@@H]2Cc1c3[nH]c2ccc(OC)cc12 ; strain: Isolate 733 HIV-positive ; result: >200 µg/mL
CCCCc1cnc(C(=O)/C=C/c2ccc(Br)cc2)cn1 ; strain: Chester ; read by: absorbance ; result: >50 µg/mL
CCC(CO)NC[C@@H]1N[C@H](CO)[C@@H](O)[C@@H]1O ; strain: 3 to 5 strains ; result: >128 µg/mL
CO[C@H]1/C=C/O[C@@]2(C)Oc3c(C)c(O)c4c(O)c(c5c(c4c3C2=O)NC2(CCN(CC(C)C)CC2)N=5)=NC(=O)/C(C)=C\C=C\[C@H](C)[C@H](O)[C@@H](C)[C@@H](O)[C@@H](C)[C@H](OC(C)=O)[C@@H]1C ; strain: Isolate 90-1816 ; result: 0.2 µg/mL
C=C1C2CC[C@H](C=O)C(O)(C=O)[C@@]2(C)CC[C@@H]1C ; strain: Isolate 733 HIV-positive ; result: >100 µg/mL
CCCCCCCCCCCCSC[C@@H]1N[C@H](CO)[C@@H](O)[C@@H]1O ; strain: 3 to 5 strains ; result: 16 µg/mL
C[C@@H]1CN(c2c(F)c(N)c3c(=O)c(C(=O)O)cn(C4CC4)c3c2F)C[C@H](C)N1 ; strain: MTCC1723 ; result: 0.08 µg/mL
CC(C)(C)c1cnc(C(=O)/C=C/c2ccccc2Cl)cn1 ; strain: Chester ; read by: absorbance ; result: >100 µg/mL
CCCCCCCCN1[C@H](CO)[C@@H](O)[C@H](O)[C@@H]1CO ; strain: 3 to 5 strains ; result: >128 µg/mL
CC[C@H]1C[C@@H]2CN3CCc4c([nH]c5ccc(OC)cc45)[C@](C(=O)OC)(C2)[C@H]13 ; strain: Isolate 733 HIV-positive ; result: >200 µg/mL
O=C(/C=C/c1ccc(Br)cc1)c1cnccn1 ; strain: Chester ; read by: absorbance ; result: >100 µg/mL
CCc1cc(C(N)=S)ccn1 ; strain: 3090 ; result: >8 µg/mL
O=C(Nc1ccccc1)c1ccccc1O ; strain: MY330/88 ; result: 125 µM
CC[C@H]1OC(=O)[C@H](C)[C@@H](O[C@H]2C[C@@](C)(OC)[C@@H](O)[C@H](C)O2)[C@H](C)[C@@H](O[C@@H]2O[C@H](C)C[C@H](N(C)C)[C@H]2O)[C@](C)(O)C[C@@H](C)CN(C)[C@H](C)[C@@H](O)[C@]1(C)O ; strain: 3090-C clarithromycin-resistant ; result: >512 µg/mL
CC(C)c1cnc(C(=O)/C=C/c2ccccc2Br)cn1 ; strain: Chester ; read by: absorbance ; result: 50 µg/mL
CC[C@H]1OC(=O)[C@H](C)[C@@H](O[C@H]2C[C@@](C)(OC)[C@@H](O)[C@H](C)O2)[C@H](C)[C@@H](O[C@@H]2O[C@H](C)C[C@H](N(C)C)[C@H]2O)[C@](C)(OC)C[C@@H](C)C(=O)[C@H](C)[C@@H](O)[C@]1(C)O ; strain: 3354 ; read by: broth dilution / radiometric ; setting: pH 7.4 ; result: 4 µg/mL
O=c1[nH]c2ccccc2c(=O)n1-c1ccc(Cl)c(Cl)c1 ; strain: MY330/88 ; result: >125 µM
CO[C@H]1/C=C/O[C@@]2(C)Oc3c(C)c(O)c4c(O)c(c(/C=N/N5CCN(C)CC5)c(O)c4c3C2=O)NC(=O)/C(C)=C\C=C\[C@H](C)[C@H](O)[C@@H](C)[C@@H](O)[C@@H](C)[C@H](OC(C)=O)[C@@H]1C ; strain: 1435 ; result: >8 µg/mL
CCCCCc1cnc(C(=O)/C=C/c2ccc(Br)cc2)cn1 ; strain: Chester ; read by: absorbance ; result: >50 µg/mL
Cc1ccc(-n2c(=O)oc3ccccc3c2=O)cc1 ; strain: MY330/88 ; result: 62 µM
CC(C)=CC/C(C)=C/CN1[C@H](CO)[C@@H](O)[C@H](O)[C@@H]1CO ; strain: 3 to 5 strains ; result: 64 µg/mL
COc1ccc2ccc(=O)oc2c1CC(=O)C(C)C ; strain: Isolate 733 HIV-positive ; result: >100 µg/mL
CCCc1cnc(C(=O)/C=C/c2ccc(Br)cc2)cn1 ; strain: Chester ; read by: absorbance ; result: >50 µg/mL
CO[C@H]1/C=C/O[C@@]2(C)Oc3c(C)c(O)c4c(O)c(c5c(c4c3C2=O)NC2(CCN(CC(C)C)CC2)N=5)=NC(=O)/C(C)=C\C=C\[C@H](C)[C@H](O)[C@@H](C)[C@@H](O)[C@@H](C)[C@H](OC(C)=O)[C@@H]1C ; strain: 6-12 ; result: <0.15 µg/mL
CCC(CO)NC[C@H]1O[C@H](CO)[C@@H](O)[C@@H]1O ; strain: 3 to 5 strains ; result: >128 µg/mL
CC[C@H]1OC(=O)[C@H](C)[C@@H](O[C@H]2C[C@@](C)(OC)[C@@H](O)[C@H](C)O2)[C@H](C)[C@@H](O[C@@H]2O[C@H](C)C[C@H](N(C)C)[C@H]2O)[C@](C)(OC)C[C@@H](C)C(=O)[C@H](C)[C@@H](O)[C@]1(C)O ; strain: 3090 ; result: ≤0.5 µg/mL
O=C(/C=C/c1ccc(F)cc1)c1cnccn1 ; strain: Chester ; read by: absorbance ; result: 100 µg/mL
Cc1ccc(NC(=O)c2ccccc2O)cc1 ; strain: MY330/88 ; result: 62 µM

A second listing of 2 rows from above:

| compound | strain | read by | setting | result |
|---|---|---|---|---|
| CCC(CO)NC[C@@H]1N[C@H](CO)[C@@H](O)[C@@H]1O | 3 to 5 strains | - | - | >128 µg/mL |
| CO[C@H]1/C=C/O[C@@]2(C)Oc3c(C)c(O)c4c(O)c(c5c(c4c3C2=O)NC2(CCN(CC(C)C)CC2)N=5)=NC(=O)/C(C)=C\C=C\[C@H](C)[C@H](O)[C@@H](C)[C@@H](O)[C@@H](C)[C@H](OC(C)=O)[C@@H]1C | 6-12 | - | - | <0.15 µg/mL |